In patent US20160302455A1, “Methods Of Producing An Antimicrobial Solution And Methods For Reducing Bacteria On Produce And/Or Minimizing Enzymatic Browning Of Produce” (priority 2015, published 2016):

Legend:
L. monocytogenes = type: cell-based, Listeria monocytogenes
E. coli O157:H7 [1] = type: cell-based, Escherichia coli O157:H7
E. coli O157:H7 [2] = type: cell-based, Escherichia coli O157:H7; remark: listed apart in the source

OO [hydrogen peroxide]
ELR (Estimated log reduction) of L. monocytogenes, cantaloupe (L. monocytogenes): 2.8 Log10 CFU/cm^2 | Surviving population of L. monocytogenes, cantaloupe rind surface, Treated (L. monocytogenes): 1.09 ± 0.04B Log10 CFU/cm^2 | ELR (Estimated log reduction) of E. coli O157:H7, cantaloupe (E. coli O157:H7 [1]): 3.0 Log10 CFU/cm^2 | Surviving population of E. coli O157:H7, cantaloupe rind surface, Treated (E. coli O157:H7 [1]): 1.22 ± 0.04B Log10 CFU/cm^2 | Surviving population of E. coli O157:H7, watermelon rind surface, Treated (E. coli O157:H7 [2]): 0.53 ± 0.10A Log10 CFU/cm^2
